Earlier results in publication PMC2935281 (Acta Crystallographica Section D: Biological Crystallography, 2010).

What was measured:
[1] = test system: LS from M. tuberculosis (MtLS); settings: cited from earlier work
C. albicans LS (CaLS) = settings: cited from earlier work

O=c1[nH]c(Cl)c(CCCCOP(=O)(O)O)c(=O)[nH]1 [JC33, 4-(6-Chloro-2,4-dioxo-1,2,3,4-tetrahydropyrimidine-5-yl)-n-butyl 1-phosphate]
Binding enthalpy ΔH [1]: -10.52 ± 0.11 kcal/mol | Free energy of binding ΔG [1]: -8.52 ± 0.05 kcal/mol | No. of sites n [1]: 0.98 ± 0.04 | TΔS [1]: -2.00 ± 0.12 kcal/mol | Binding enthalpy ΔH (C. albicans LS (CaLS)): -6.98 ± 0.24 kcal/mol | Free energy of binding ΔG (C. albicans LS (CaLS)): -9.38 ± 0.01 kcal/mol | No. of sites n (C. albicans LS (CaLS)): 1.15 ± 0.03 | TΔS (C. albicans LS (CaLS)): 2.44 ± 0.25 kcal/mol
